Key:
[1] = target: T1, tetanus neurotoxin (TeNT), authentic tetanus holotoxin (Clostridium tetani, UniProt P04958 2-1315); experiment: GT1b-TeNT inhibition ELISA
[2] = target: T1, tetanus neurotoxin (TeNT), authentic …; experiment: bridging ELISA: coated dog Alb, SDA, biotinylated TeNT, StrepPO
[3] = target: T1, tetanus neurotoxin (TeNT), authentic …; experiment: bridging ELISA: coated TeNT, SDA, biotinylated TeNT, StrepPO (bivalent binding)
[4] = target: T1, tetanus neurotoxin (TeNT), authentic …; experiment: ELISA: directly coated TeNT, goat anti-llama Ig PO
[5] = target: T1, tetanus neurotoxin (TeNT), authentic …; experiment: GT1b-TeNT inhibition ELISA; remark: listed apart in the source
[6] = target: T1, tetanus neurotoxin (TeNT), authentic …; experiment: ELISA: directly coated TeNT, anti-his6 PO
[7] = target: T1, tetanus neurotoxin (TeNT), authentic …; experiment: ELISA: directly coated TeNT, anti-his6 PO; remark: listed apart in the source
[8] = target: T1, tetanus neurotoxin (TeNT), authentic …; experiment: bridging ELISA: coated TeNT, SDA, biotinylated TeNT, StrepPO (bivalent binding); remark: listed apart in the source
[9] = target: T1, tetanus neurotoxin (TeNT), authentic …; experiment: bridging ELISA: coated dog Alb, SDA, biotinylated TeNT, StrepPO; remark: listed apart in the source
[10] = target: T1, tetanus neurotoxin (TeNT), authentic …; experiment: ELISA: directly coated TeNT, goat anti-llama Ig PO; remark: listed apart in the source
[11] = target: T1, tetanus neurotoxin (TeNT), authentic …; experiment: bridging ELISA: coated dog IgG, SDA, biotinylated TeNT, StrepPO
[12] = target: T1, tetanus neurotoxin (TeNT), authentic …; experiment: as above; remark: listed apart in the source
[13] = target: T1, tetanus neurotoxin (TeNT), authentic …; experiment: BLI (Octet Red96): biotinylated TeNT on SAX sensor, SDA 100 nM

| Binder | minimal absorbance value (GT1b-TeNT inhibition) [1] [A450] | maximal absorbance value [2] [A450] | Effective SDA Concentration at A450 0.3 [3] [ng/mL] | Effective SDA Concentration at A450 0.15 [4] [ng/mL] | Effective SDA Concentration at A450 0.56 [5] [ng/mL] | maximal absorbance value [6] [A450] | Effective SDA Concentration at A450 0.15 [7] [ng/mL] | maximal absorbance value [8] [A450] | Effective SDA Concentration at A450 0.3 [9] [ng/mL] | maximal absorbance value [10] [A450] | Effective SDA Concentration at A450 0.3 [11] [ng/mL] | maximal absorbance value [12] [A450] | 1st test Signal (nm) [13] [nm] |
| --- | --- | --- | --- | --- | --- | --- | --- | --- | --- | --- | --- | --- | --- |
| SVT06-GS3-SVT16-L123Q-GS2-SVA12M2-H6 (bispecific antibody) QVQLQESGGGSVQAGGSLRLSCTASELSYDDYTIAWFRRAAGEGRVEDGEGVASITKSYDRAYDNKINYGHSVKGRFTISRDNAKNTVYLQMTDLLPSDTAVYYCALDITPPGGVGASLTEGFLFDYWGQGTQVTVSSGGGGSGGGGSGGGGSQVQLQESGGGSVQAGDSLRLSCAASGRTISNYAMGWFRQAPGKQREFVAAISRSDNTYYTDSVKGRFTISRDNAKNTLYLQMNSLKPEETAVYYCAADPNLMYESKWKYRALEAWGQGTQVTVSSGGGGSGGGSEVQLVESGGGLVQAGGSLRLSCAASGRTFSYYPMAWFRQAPGQEREFVAAIIGADTTYYADSLKGRFTISRDNAKNMVYLQMNSLKPEDTAVYYCAARNTYWSDVYYREGQYTNWGQGTQVTVSSHHHHHH | 0.13 | 1.55 | 5.4 | 1.1 | 49 | 1.72 | 3.8 | 1.62 | 1.5 | 1.41 |  |  |  |
| SVT16-L123Q-GS2-SVG13M4-H6 (bispecific antibody) QVQLQESGGGSVQAGDSLRLSCAASGRTISNYAMGWFRQAPGKQREFVAAISRSDNTYYTDSVKGRFTISRDNAKNTLYLQMNSLKPEETAVYYCAADPNLMYESKWKYRALEAWGQGTQVTVSSGGGGSGGGSEVQLVESGGGLVQPGGSLRLSCEASGFTFDDYGMSWVRQAPGKGLEWVSSLTPNGGSTYYADSVKGRFTISRDNAKNTLYLQMNSLKPEDTALYYCAKNSYYGAMDYWGQGTQVTVSSHHHHHH | 0.13 |  | 13 | 3 | 73 | 1.45 | 8 | 1.12 |  | 1.22 | 2.6 | 1.5 | 0.18 |
| SVT06-SVT16-L123Q-GS2-SVG13M4-H6 (bispecific antibody, also called pRL501) QVQLQESGGGSVQAGGSLRLSCTASELSYDDYTIAWFRRAAGEGRVEDGEGVASITKSYDRAYDNKINYGHSVKGRFTISRDNAKNTVYLQMTDLLPSDTAVYYCALDITPPGGVGASLTEGFLFDYWGQGTQVTVSSQVQLQESGGGSVQAGDSLRLSCAASGRTISNYAMGWFRQAPGKQREFVAAISRSDNTYYTDSVKGRFTISRDNAKNTLYLQMNSLKPEETAVYYCAADPNLMYESKWKYRALEAWGQGTQVTVSSGGGGSGGGSEVQLVESGGGLVQPGGSLRLSCEASGFTFDDYGMSWVRQAPGKGLEWVSSLTPNGGSTYYADSVKGRFTISRDNAKNTLYLQMNSLKPEDTALYYCAKNSYYGAMDYWGQGTQVTVSSHHHHHH | 0.13 |  | 5.3 | 4 | 35 | 1.62 | 11 | 1.73 |  | 1.37 | 1.2 | 1.69 |  |

Reference: US20240376185A1, “Tetanus prophylaxis” (SMIVET B V, published 2024)
